Reference: patent US20230248626A1, “Compositions Comprising (Bio)-Alkanediols” (Symrise AG, priority 0001, published 2023)

Experiments:
[1] = Odor intensity of fragrance blend sprayed on paper stripes, untrained panelists (Example B.2); settings: 1=weak odor, 5=strong odor, 2.0% alkanediol in total with 1% FRA-Blend in ethanol/water
[2] = Malodour coverage of sweat malodour on filter paper, trained panel (Example B.1); settings: scale 0 to 10 (0: odorless; 10: strongest imaginable)
[3] = Boosting/masking effect on fragrance blend, paper stripes dunked, untrained panelists (Example B.4); settings: 1=weak odour; 5=strong odour; 2.0% alkanediol in total with 1% FRA-Blend

Row | SMILES | odor intensity, mean value, after 10 minutes [1] | odor intensity, mean value, after 25 minutes [1] | odor intensity, single panelist, after 25 minutes ([1]; listed as 1,2-C8) | malodour value, 6 h [2] | malodour value, Fresh [2] | odor intensity, single panelist, after 10 minutes ([1]; listed as 1,2-C7) | odor intensity, single panelist, after 25 minutes ([1]; listed as 1,2-C7) | odour (fragrance) intensity, mean value, after 10 min [3] | odour (fragrance) intensity, mean value, after 30 min [3] | odor intensity, single panelist, after 10 minutes ([1]; listed as 2,3-C7) | odor intensity, single panelist, after 25 minutes ([1]; listed as 2,3-C7) | odor intensity, single panelist, after 10 minutes ([1]; listed as 2,3-C8) | odor intensity, single panelist, after 25 minutes ([1]; listed as 2,3-C8)
1 | CCCCCCC(O)CO (stereo not drawn) [1,2-octanediol] | 3.4 | 2.6 | 2 and 3 | – | – | – | – | – | – | – | – | – | –
2 | CCCCCC(O)CO (stereo not drawn) [1,2-heptanediol] | 2.4 | 2.4 | – | 4.8 | 5.6 and 5.7 | 3 and 2 | 2 and 3 | 2.4 | 2.4 | – | – | – | –
3 | CCCCC(O)C(C)O (stereo not drawn) [2,3-heptanediol] | 3.0 | 2.4 | – | – | – | – | – | – | – | 4 and 3 and 2 | 4 and 2 | – | –
4 | CCCCCC(O)C(C)O (stereo not drawn) [2,3-octanediol] | 3.4 | 2.8 | – | – | – | – | – | 3.3 | 3.1 | – | – | 3 and 4 | 3 and 2

Several values for one entry are separate records, joined by “and”; a condition that tells them apart may be missing. Equal entries are not always repeated.
